A mixed list of measured activities; the numbers were collected in NIAID ChemDB.

Shared fields: whole-cell or culture tests; species: HIV-2; cell line: MT-4; measure: EC50

An empty or dashed field is not shown.

SMILES,strain,read by,result
COC(=O)CCCCn1c(=O)c(C)cn([C@@H]2O[C@H](CO[Si](C)(C)C(C)(C)C)[C@@H](O)[C@H]2O[Si](C)(C)C(C)(C)C)c1=O,ROD,cytopathic effect / trypan blue,>10 µM
Cc1cn(C2OC(CO[Si](C)(C)C(C)(C)C)C3(OS(=O)(=O)C=C3N)C2O[Si](C)(C)C(C)(C)C)c(=O)n(/C=C/CO)c1=O,ROD,trypan blue,>2 µM
O=C(COc1nsnc1-c1cccc2ccccc12)Nc1ccccn1,ROD,MTT,>13 µM
C=CCO[C@]12CS(=O)(=O)O[C@@]13[C@@H](CN2)O[C@@H](n1cc(C)c(=O)[nH]c1=O)[C@@H]3O[Si](C)(C)C(C)(C)C,ROD,,>10 µM
N#Cc1ccc(Cn2cc(COc3nsnc3-c3cccc4ccccc34)nn2)cc1,ROD,MTT,>13 µM
CC1(C)[C@@H](CCO)C[C@H]1n1nnc2c(N)nc(N)nc21,,cytopathic effect,>100 µg/mL
C[C@H](C[n+]1c[nH]c2c(N)nc(N)nc21)OCP(=O)(O)O,ROD,cytopathic effect / MTT,0.236 ± 0.03 µg/mL
CNOC(=O)Cn1c(=O)c(C)cn([C@@H]2O[C@H](CO[Si](C)(C)C(C)(C)C)[C@@H](O)[C@H]2O[Si](C)(C)C(C)(C)C)c1=O,ROD,cytopathic effect / trypan blue,>10 µM
Cc1ccc(NC(=O)COc2nsnc2-c2cccc3ccccc23)c([N+](=O)[O-])c1,ROD,MTT,>29 µM
Nc1nc(N2CCCCC2)c2ncn(CCOCP(=O)(O)O)c2n1,ROD,cytopathic effect / MTT,3 µg/mL
CC1(C)[C@@H](CCO)C[C@H]1n1cnc2c(=O)[nH]cnc21,,cytopathic effect,>100 µg/mL
Cc1cn([C@@H]2O[C@H](CO[Si](C)(C)C(C)(C)C)[C@@H](O)[C@H]2O[Si](C)(C)C(C)(C)C)c(=O)n(CCC(=O)O)c1=O,ROD,cytopathic effect / trypan blue,>10 µM
C=C1CN(S(=O)(=O)c2ccc(C)cc2)CCCN(Cc2ccccc2)CCCN(S(=O)(=O)c2ccc(C)cc2)C1,EHO,cytopathic effect,0.2 µM
COc1ccc(CSc2nc(C(=O)c3cccc(F)c3)c(C)c(=O)[nH]2)cc1,,MTT,>325 µM
CC1(C)[C@@H](CCO)C[C@H]1n1nnc2c(Cl)nc(N)nc21,,cytopathic effect,>200 µg/mL
C[C@H](CC1CNC2C1CC(N)CN2N)OCP(=O)(O)O,ROD,cytopathic effect / MTT,>100 µg/mL
Cc1cn([C@@H]2O[C@@H]3CN[C@@]4(C(N)=O)CS(=O)(=O)O[C@@]34[C@H]2O[Si](C)(C)C(C)(C)C)c(=O)[nH]c1=O,ROD,,>125 µM
Cc1cccc(Nn2c(C)c(C)[nH]c2=S)c1,ROD,cytopathic effect / MTT,>360 µM
Cc1cn(C2OC(CO[Si](C)(C)C(C)(C)C)C3(OS(=O)(=O)C=C3N)C2O[Si](C)(C)C(C)(C)C)c(=O)n(CC2CO2)c1=O,ROD,trypan blue,>50 µM
COC(=O)Cn1c(=O)c(C)cn([C@@H]2O[C@H](CO[Si](C)(C)C(C)(C)C)[C@@H](O[Si](C)(C)C(C)(C)C)[C@H]2O)c1=O,ROD,cytopathic effect / trypan blue,>2 µM
Cc1[nH]c(=S)n(Nc2cccc(Cl)c2)c1C,ROD,cytopathic effect / MTT,>259 µM
CCOC(=O)c1ccc(NC(=O)COc2nsnc2-c2cccc3ccccc23)cc1,ROD,MTT,>85 µM
Cc1cn([C@@H]2O[C@@H]3CN[C@@]4(OCCO)CS(=O)(=O)O[C@@]34[C@H]2O[Si](C)(C)C(C)(C)C)c(=O)[nH]c1=O,ROD,,>25 µM
CC(C)(C)[Si](C)(C)OC[C@@H]1CC[C@H](n2cnc3c(=O)n(CC(=O)O)cnc32)O1,ROD,cytopathic effect / trypan blue,>200 µM
COc1ccc(CSc2nc(C(=O)c3ccc(Br)cc3)c(C)c(=O)[nH]2)cc1,,MTT,>201 µM
O=C(COc1nsnc1-c1cccc2ccccc12)Nc1ccc(Cl)cc1Cl,ROD,MTT,>116 µM
CC(=O)NS(=O)(=O)c1c(C)cc(C)c(-c2c3nc(c(-c4c(C)cc(C)c(S(=O)(=O)NC(C)=O)c4C)c4ccc([nH]4)c(-c4c(C)cc(C)c(S(=O)(=O)NC(C)=O)c4C)c4nc(c(-c5c(C)cc(C)c(S(=O)(=O)NC(C)=O)c5C)c5ccc2[nH]5)C=C4)C=C3)c1C,ROD,cytopathic effect / MTT,≥75 µg/mL
COC(=O)Cn1c(=O)c(C)cn([C@@H]2O[C@H](CO[Si](C)(C)C(C)(C)C)[C@@H](O)[C@H]2O[Si](C)(C)C(C)(C)C)c1=O,ROD,cytopathic effect / trypan blue,>10 µM
Cc1cn(C2OC(CO[Si](C)(C)C(C)(C)C)C3(OS(=O)(=O)C=C3N)C2O[Si](C)(C)C(C)(C)C)c(=O)n(CCCNC(=O)c2ccc(C(=O)c3ccccc3)cc2)c1=O,ROD,trypan blue,>50 µM
Cc1cn([C@@H]2O[C@H](C3CO[Si](C(C)C)(C(C)C)O[Si](C(C)C)(C(C)C)O3)C3(OS(=O)(=O)C=C3N)[C@H]2O)c(=O)[nH]c1=O,ROD,cytopathic effect,>6.3 µM
COc1ccc(Cn2cc(COc3nsnc3-c3cccc4ccccc34)nn2)cc1,ROD,MTT,>116 µM
Cc1cccc(Nn2c(-c3ccccc3)c(C)[nH]c2=S)c1,ROD,cytopathic effect / MTT,>35.71 µM
Cc1cn([C@@H]2O[C@H](C3CO[Si](C(C)C)(C(C)C)O[Si](C(C)C)(C(C)C)O3)C3(OS(=O)(=O)C=C3N)[C@H]2O[Si](C)(C)C(C)(C)C)c(=O)[nH]c1=O,ROD,cytopathic effect,>26.7 µM
Cc1cc(C)cc(Nn2c(-c3ccccc3)c(C)[nH]c2=S)c1,ROD,cytopathic effect / MTT,>194 µM
CCS[C@]12CS(=O)(=O)O[C@@]13[C@@H](CN2)O[C@@H](n1cc(C)c(=O)[nH]c1=O)[C@@H]3O[Si](C)(C)C(C)(C)C,ROD,,>50 µM

Again, the opening 2 rows:

SMILES | strain | read by | result
COC(=O)CCCCn1c(=O)c(C)cn([C@@H]2O[C@H](CO[Si](C)(C)C(C)(C)C)[C@@H](O)[C@H]2O[Si](C)(C)C(C)(C)C)c1=O | ROD | cytopathic effect / trypan blue | >10 µM
Cc1cn(C2OC(CO[Si](C)(C)C(C)(C)C)C3(OS(=O)(=O)C=C3N)C2O[Si](C)(C)C(C)(C)C)c(=O)n(/C=C/CO)c1=O | ROD | trypan blue | >2 µM

Lines come from different laboratories, so protocols vary. ECn: concentration that inhibits the pathogen or its effect by n%.